Activity calls are given as the source filed them. The rule behind the calls is not given here.
Tested on: Vibrio harveyi
Experiment: Growth inhibition of Vibrio harveyi assessed as time required to double bacterial growth relative to control
Type: functional, organism-based

In the case of `O=[N+]([O-])c1cc([N+](=O)[O-])c(O)c(O)c1O`, the Activity is reported as “inactive”.

Source: ChEMBL document CHEMBL1141519, “Pyrogallol and its analogs can antagonize bacterial quorum sensing in Vibrio harveyi” (Bioorg Med Chem Lett, 2008)
